# PubChem BioAssay AID624099 – ICCB-Longwood – 2012
# Assay: 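Human genes that papillomavirus E2 requires to repress the HPV18 LCR promoter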 (primary screen)
# Cells: human C33A cervical carcinoma cells (HPV-negative) stably expressing BPV1 E2 and an HPV18 LCR luciferase reporter
# Reagents: siRNA pool against human genes, 40 nM
# Time to read-out: 72 h
# Measured: 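HPV18 LCR reporter light per well, converted to plate-wise z-scores that exclude control wells, and averaged over triplicate plates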
# Scale: mean z-score and z-score: higher = stronger reporter signal, weaker E2 silencing
# Call rule: 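Hit if mean z-score reaches 2 and two or more of three replicate z-scores also reach 2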
# The deposit covers about 21,000 reagents; below is an unselected part. Over the whole deposit, 497 (2.4%) are marked active. 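Higher z means weaker E2 silencing; only reporter increases were scored, and knock-downs that hurt cell survival may mask genuine repressor factors.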 A number with no mark means an inactive call.
Gene,mean z-score,"z-score, replicate A","z-score, replicate B","z-score, replicate C"
SEMA5A (semaphorin 5A),0.81,1.06,1,0.36
CDK5 (cyclin dependent kinase 5),0.02,0.44,-0.26,-0.11
PTGDR (prostaglandin D2 receptor),0.19,0.51,0.07,-0.02
"PSMC6 (proteasome 26S subunit, ATPase 6)",-0.53,-0.49,-0.47,-0.62
APPL2,0.8,1.16,0.76,0.47
REELD1 (reeler domain containing 1),0.73,0.73,0.76,0.69
ASB4 (ankyrin repeat and SOCS box containing 4),0.19,0.26,0.35,-0.02
POLH (DNA polymerase eta),0.38,0.34,0.11,0.69
ZNF532 (zinc finger protein 532),3.22 (active),3.47,3.23,2.95
SLC25A48,1.33,1.09,1.4,1.5
VDAC2 (voltage dependent anion channel 2),-0.75,-0.72,-0.75,-0.77
TIMP4 (TIMP metallopeptidase inhibitor 4),0.09,-0.07,-0.01,0.34
KLHL33 (kelch like family member 33),-1.19,-1.61,-0.88,-1.07
WFDC1 (WAP four-disulfide core domain 1),-0.86,-0.76,-1.01,-0.81
SMIM20 (small integral membrane protein 20),0.75,0.03,1.02,1.19
NFYC (nuclear transcription factor Y subunit gamma),-0.54,-0.42,-0.7,-0.51
IGFBP6 (insulin like growth factor binding protein 6),-0.8,-0.16,-1.49,-0.74
SIK1 (salt inducible kinase 1),1.25,1.17,0.99,1.6
MS4A2 (membrane spanning 4-domains A2),0.14,0.28,0.44,-0.3
RBL1 (RB transcriptional corepressor like 1),-0.94,-1.01,-0.9,-0.92
DNER (delta/notch like EGF repeat containing),0,-0.09,-0.25,0.33
CXorf58 (chromosome X open reading frame 58),-1.21,-1.37,-0.99,-1.28
EDARADD (EDAR associated via death domain),-0.28,-0.26,-0.39,-0.19

Reagents listed above called active, once more:
Gene,mean z-score,"z-score, replicate A","z-score, replicate B","z-score, replicate C"
ZNF532 (zinc finger protein 532),3.22 (active),3.47,3.23,2.95
